These results are taken from PMC9506549, “µ-Conotoxins Targeting the Human Voltage-Gated Sodium Channel Subtype NaV1.7” (2022).

Amino acid sequences for entries named in this document (tags omitted).
UniProt Q14524, whole entry, looked up: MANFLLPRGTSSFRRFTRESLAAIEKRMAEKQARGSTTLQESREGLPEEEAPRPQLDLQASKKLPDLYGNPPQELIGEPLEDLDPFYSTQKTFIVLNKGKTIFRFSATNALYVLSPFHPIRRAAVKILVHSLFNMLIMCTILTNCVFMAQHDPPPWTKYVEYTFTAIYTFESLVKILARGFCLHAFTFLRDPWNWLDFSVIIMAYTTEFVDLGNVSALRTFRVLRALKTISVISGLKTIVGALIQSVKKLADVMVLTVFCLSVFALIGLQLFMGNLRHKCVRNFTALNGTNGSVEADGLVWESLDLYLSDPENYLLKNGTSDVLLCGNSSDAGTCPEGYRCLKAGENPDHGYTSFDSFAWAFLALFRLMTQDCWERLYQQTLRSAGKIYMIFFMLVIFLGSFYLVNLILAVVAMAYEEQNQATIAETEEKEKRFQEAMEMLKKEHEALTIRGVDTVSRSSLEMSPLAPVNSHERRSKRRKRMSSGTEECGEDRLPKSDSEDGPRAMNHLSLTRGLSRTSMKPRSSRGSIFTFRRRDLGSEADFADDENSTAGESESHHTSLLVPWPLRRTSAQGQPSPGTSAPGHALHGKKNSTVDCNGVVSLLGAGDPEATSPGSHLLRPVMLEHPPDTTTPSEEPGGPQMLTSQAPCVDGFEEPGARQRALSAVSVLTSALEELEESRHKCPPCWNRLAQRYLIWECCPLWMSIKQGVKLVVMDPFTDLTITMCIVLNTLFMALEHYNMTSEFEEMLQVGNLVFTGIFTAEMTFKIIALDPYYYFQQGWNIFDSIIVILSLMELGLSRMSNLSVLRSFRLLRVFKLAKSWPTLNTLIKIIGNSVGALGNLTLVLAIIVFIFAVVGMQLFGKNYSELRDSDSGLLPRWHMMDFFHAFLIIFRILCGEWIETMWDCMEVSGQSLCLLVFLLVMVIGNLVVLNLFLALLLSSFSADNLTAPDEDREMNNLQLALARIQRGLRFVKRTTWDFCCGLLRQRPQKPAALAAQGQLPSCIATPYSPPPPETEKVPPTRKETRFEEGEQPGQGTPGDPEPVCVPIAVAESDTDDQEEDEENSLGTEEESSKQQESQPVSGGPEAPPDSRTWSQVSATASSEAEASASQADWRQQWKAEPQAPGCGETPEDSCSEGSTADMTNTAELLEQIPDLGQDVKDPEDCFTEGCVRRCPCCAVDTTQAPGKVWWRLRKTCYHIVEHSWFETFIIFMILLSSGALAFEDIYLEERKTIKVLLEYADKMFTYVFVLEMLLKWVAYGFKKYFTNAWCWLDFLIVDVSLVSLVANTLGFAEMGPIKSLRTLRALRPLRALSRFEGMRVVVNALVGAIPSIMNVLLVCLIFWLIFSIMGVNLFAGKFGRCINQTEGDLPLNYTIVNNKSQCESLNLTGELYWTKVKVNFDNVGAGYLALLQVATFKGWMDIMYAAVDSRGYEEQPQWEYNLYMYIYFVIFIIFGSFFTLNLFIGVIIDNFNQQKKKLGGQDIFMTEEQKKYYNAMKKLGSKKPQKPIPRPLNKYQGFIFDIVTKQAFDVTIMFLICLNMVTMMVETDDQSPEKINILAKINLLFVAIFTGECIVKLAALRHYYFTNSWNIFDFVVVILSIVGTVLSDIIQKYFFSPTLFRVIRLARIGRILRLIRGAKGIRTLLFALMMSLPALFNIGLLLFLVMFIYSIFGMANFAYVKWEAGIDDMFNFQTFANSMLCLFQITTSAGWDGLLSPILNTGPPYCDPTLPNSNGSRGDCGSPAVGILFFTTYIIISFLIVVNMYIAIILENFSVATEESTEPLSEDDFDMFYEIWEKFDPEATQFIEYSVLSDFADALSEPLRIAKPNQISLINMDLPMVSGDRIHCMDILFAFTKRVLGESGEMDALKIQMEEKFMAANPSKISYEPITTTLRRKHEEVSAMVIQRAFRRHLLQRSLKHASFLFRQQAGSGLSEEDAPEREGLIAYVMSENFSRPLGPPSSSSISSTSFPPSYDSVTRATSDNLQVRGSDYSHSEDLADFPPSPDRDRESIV
UniProt Q9UQD0, whole entry, looked up: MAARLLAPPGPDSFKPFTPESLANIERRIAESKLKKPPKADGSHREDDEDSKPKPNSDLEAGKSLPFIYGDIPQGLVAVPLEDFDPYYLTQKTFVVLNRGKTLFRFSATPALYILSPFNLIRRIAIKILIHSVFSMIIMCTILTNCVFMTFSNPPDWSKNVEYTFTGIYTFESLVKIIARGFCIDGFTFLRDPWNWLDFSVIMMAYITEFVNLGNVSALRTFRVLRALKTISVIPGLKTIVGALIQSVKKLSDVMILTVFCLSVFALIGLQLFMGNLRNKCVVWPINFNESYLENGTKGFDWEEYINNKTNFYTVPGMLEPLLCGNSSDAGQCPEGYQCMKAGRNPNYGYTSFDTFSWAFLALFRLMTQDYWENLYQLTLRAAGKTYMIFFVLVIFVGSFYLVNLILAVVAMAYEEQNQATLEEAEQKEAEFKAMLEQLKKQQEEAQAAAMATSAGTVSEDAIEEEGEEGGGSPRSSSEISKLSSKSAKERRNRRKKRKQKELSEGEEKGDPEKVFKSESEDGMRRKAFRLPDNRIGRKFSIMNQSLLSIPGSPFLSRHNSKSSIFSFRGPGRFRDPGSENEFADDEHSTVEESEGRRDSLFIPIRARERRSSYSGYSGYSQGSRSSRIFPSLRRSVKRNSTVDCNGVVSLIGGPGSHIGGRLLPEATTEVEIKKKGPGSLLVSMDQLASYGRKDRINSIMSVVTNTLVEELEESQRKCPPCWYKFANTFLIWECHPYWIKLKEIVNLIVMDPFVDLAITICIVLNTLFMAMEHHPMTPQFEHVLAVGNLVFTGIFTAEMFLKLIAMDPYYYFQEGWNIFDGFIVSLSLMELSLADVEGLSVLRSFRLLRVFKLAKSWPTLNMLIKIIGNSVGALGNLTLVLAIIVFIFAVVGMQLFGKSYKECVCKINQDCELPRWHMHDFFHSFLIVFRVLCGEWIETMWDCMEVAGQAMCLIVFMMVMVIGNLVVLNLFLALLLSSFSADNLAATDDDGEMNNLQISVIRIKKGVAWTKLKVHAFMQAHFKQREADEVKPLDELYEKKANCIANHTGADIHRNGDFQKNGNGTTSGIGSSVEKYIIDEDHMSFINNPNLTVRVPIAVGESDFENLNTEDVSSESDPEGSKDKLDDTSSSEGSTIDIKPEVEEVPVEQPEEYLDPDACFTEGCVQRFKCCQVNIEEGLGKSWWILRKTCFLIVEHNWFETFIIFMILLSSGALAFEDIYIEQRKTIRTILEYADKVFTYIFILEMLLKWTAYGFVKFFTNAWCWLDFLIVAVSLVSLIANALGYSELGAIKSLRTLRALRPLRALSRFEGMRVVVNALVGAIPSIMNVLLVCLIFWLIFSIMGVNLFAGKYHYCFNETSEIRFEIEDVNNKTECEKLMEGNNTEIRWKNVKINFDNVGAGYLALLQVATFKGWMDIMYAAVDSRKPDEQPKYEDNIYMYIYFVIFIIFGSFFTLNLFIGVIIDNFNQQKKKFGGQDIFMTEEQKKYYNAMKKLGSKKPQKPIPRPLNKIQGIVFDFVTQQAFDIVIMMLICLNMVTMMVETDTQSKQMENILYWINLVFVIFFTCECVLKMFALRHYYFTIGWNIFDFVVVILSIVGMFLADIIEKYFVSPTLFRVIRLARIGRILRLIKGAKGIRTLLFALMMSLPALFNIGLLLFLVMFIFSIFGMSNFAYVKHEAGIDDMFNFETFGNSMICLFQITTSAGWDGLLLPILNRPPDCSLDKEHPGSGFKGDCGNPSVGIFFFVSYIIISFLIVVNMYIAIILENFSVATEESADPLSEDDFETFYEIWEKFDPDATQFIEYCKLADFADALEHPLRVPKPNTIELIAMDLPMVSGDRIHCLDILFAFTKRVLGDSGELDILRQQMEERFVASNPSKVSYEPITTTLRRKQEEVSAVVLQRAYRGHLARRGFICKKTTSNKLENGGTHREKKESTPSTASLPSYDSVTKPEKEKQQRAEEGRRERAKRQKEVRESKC
UniProt Q15858, whole entry, looked up: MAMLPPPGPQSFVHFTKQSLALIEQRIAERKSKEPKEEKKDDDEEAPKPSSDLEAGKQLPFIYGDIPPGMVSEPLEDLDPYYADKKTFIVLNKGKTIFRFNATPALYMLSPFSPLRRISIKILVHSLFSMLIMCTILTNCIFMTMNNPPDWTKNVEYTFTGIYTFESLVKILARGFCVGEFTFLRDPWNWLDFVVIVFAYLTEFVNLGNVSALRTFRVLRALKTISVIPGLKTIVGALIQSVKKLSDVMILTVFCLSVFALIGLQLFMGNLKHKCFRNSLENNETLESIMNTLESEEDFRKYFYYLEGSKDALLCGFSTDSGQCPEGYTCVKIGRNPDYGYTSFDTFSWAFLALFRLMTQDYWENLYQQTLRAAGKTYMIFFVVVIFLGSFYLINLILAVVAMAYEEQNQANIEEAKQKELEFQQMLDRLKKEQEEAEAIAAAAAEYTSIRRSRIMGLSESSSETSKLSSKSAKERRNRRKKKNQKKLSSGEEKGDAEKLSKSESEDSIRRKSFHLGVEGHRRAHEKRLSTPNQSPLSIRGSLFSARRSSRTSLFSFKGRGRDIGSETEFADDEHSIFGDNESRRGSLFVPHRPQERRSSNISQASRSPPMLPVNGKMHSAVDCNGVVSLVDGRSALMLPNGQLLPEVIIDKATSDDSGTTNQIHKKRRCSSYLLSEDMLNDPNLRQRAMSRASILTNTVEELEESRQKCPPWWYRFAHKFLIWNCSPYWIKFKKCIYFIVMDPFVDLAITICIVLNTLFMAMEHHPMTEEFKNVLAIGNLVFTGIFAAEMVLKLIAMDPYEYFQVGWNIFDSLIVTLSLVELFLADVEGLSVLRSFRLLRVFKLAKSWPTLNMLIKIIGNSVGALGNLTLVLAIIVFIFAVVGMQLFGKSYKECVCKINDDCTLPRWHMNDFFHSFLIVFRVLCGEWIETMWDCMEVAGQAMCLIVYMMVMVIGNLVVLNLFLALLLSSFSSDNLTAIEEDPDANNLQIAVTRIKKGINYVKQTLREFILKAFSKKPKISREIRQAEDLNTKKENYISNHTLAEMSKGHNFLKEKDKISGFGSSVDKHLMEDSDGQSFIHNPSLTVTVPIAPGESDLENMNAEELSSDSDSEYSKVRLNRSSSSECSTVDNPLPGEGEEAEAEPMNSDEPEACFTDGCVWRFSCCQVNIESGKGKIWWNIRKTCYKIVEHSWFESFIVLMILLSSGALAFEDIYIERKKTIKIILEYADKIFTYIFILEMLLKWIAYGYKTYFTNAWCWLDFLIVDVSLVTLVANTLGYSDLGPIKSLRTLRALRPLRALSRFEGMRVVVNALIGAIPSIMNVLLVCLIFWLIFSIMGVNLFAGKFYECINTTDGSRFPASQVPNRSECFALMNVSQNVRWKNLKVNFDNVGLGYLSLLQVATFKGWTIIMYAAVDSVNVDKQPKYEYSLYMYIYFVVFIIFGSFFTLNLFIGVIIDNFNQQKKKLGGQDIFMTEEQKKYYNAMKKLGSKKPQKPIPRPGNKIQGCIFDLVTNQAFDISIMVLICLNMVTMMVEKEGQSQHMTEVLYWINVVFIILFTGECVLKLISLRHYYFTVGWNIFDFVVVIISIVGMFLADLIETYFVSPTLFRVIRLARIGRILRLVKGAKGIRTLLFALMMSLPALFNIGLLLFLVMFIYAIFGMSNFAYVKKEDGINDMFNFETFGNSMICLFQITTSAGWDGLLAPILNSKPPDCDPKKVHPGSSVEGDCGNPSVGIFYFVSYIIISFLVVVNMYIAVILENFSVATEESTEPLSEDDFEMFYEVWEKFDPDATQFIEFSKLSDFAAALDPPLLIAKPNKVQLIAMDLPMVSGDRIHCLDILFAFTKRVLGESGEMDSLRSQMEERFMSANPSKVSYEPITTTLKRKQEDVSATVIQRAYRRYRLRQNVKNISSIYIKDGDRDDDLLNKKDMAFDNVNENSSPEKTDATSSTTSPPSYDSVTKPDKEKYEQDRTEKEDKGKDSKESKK

Broadly, the IC50 is the concentration that gives 50% inhibition.

For assay [1], the target named is T1, hNaV1.5 (Homo sapiens, UniProt Q14524). Nature of the assay: Automated whole-cell patch-clamp electrophysiology, hNaV1.5/β1 in HEK293 cells. As to conditions: read-out: IC50 NaV1.5; automated whole-cell patch-clamp (QPatch-16), HEK293 hNaV1.5/β1, 0.1% BSA, 5 min per concentration, 22 °C; n = 3–10 cells. (The patch-clamp technique gives a direct electrical read-out from membranes.)

A further assay has as its target hNaV1.1 (Homo sapiens, UniProt P35498). Put plainly: Automated whole-cell patch-clamp electrophysiology, hNaV1.1/β1 in HEK293 cells. As to conditions: read-out: IC50 NaV1.1; automated whole-cell patch-clamp (QPatch-16), HEK293 hNaV1.1/β1, peptide with 0.1% BSA, 5 min per concentration, pulse to −20 mV from −90 mV, 22 °C; mean ± SEM, n = 3–10 cells.
A further assay deals with hNaV1.6 (Homo sapiens, UniProt Q9UQD0). Put plainly: Automated whole-cell patch-clamp electrophysiology, hNaV1.6/β1 in HEK293 cells. Particulars: read-out: IC50 NaV1.6; automated whole-cell patch-clamp (QPatch-16), HEK293 hNaV1.6/β1, 0.1% BSA, 5 min per concentration, 22 °C; mean ± SEM, n = 3–10 cells.
The next assay has as its target hNaV1.7 (Homo sapiens, UniProt Q15858). Nature of the assay: Automated whole-cell patch-clamp electrophysiology, hNaV1.7/β1 in HEK293 cells. As to conditions: for Inhibitory Potency at hNaV1.7: Yes/No summary, Table 2.
Assay [2] addresses T1, hNaV1.5. Particulars: read-out: IC50 NaV1.5; whole-cell patch-clamp, HEK293 hNaV1.5/β1; cited from earlier work.

Read-outs that look alike come from different tables or passages of the source. Bounds are passed on as bounds.

For `N=C(N)NCCC[C@@H]1NC(=O)[C@H](CO)NC(=O)[C@H](Cc2c[nH]cn2)NC(=O)[C@H](CC(=O)O)NC(=O)[C@H](CCCNC(=N)N)NC(=O)[C@@H]2CSSC[C@@H]3NC(=O)[C@@H](N)CSSC[C@H](NC1=O)C(=O)N[C@H](C(N)=O)CSSC[C@H](NC(=O)[C@H](CC(N)=O)NC3=O)C(=O)N[C@@H](CO)C(=O)N[C@@H](CO)C(=O)N[C@@H](CCCCN)C(=O)N[C@@H](Cc1c[nH]c3ccccc13)C(=O)N2`, the IC50 was over 1 µM at hNaV1.5 [1]; 0.136 µM on hNaV1.1; 0.762 µM at hNaV1.6; 0.384 µM at hNaV1.7 (read-out: IC50 hNaV1.7, analogue and extended µ-conotoxin series (Table 3, Figures 2 and 6), automated whole-cell patch-clamp, HEK293 hNaV1.7/β1, 5 min per concentration, 22 °C, mean ± SEM, n = 3–4 cells). Also, the “Inhibitory Potency at hNaV1.7” value at hNaV1.7 was “Yes”.

Turning to `C[C@@H]1NC(=O)[C@H](Cc2c[nH]cn2)NC(=O)[C@H](CC(=O)O)NC(=O)[C@H](CCCNC(=N)N)NC(=O)[C@@H]2CSSC[C@H](NC(=O)CNC(=O)[C@@H](N)CCCNC(=N)N)C(=O)N[C@H]3CSSC[C@H](NC(=O)[C@H](CCCNC(=N)N)NC1=O)C(=O)N[C@H](C(N)=O)CSSC[C@H](NC(=O)CNC(=O)CNC(=O)[C@H](CCCNC(=N)N)NC(=O)CNC(=O)[C@H](CC(N)=O)NC3=O)C(=O)N[C@@H](CO)C(=O)N[C@@H](CO)C(=O)N[C@@H](CCCNC(=N)N)C(=O)N[C@@H](Cc1c[nH]c3ccccc13)C(=O)N2`, on hNaV1.5 [2], the IC50 is over 1 µM.

For the molecule `N=C(N)NCCC[C@@H]1NC(=O)CNC(=O)[C@H](CC(N)=O)NC(=O)[C@@H]2CSSC[C@@H]3NC(=O)[C@H](CCCNC(=N)N)NC(=O)[C@H](CO)NC(=O)[C@H](Cc4c[nH]cn4)NC(=O)[C@H](CC(=O)O)NC(=O)[C@H](CCCNC(=N)N)NC(=O)[C@H](CSSC[C@H](NC(=O)[C@H](CCCNC(=N)N)NC(=O)[C@@H]4CCC(=O)N4)C(=O)N2)NC(=O)[C@H](Cc2c[nH]c4ccccc24)NC(=O)[C@H](CCCNC(=N)N)NC(=O)[C@H](CO)NC(=O)[C@H](CO)NC(=O)[C@H](CSSC[C@@H](C(N)=O)NC3=O)NC(=O)CNC(=O)[C@H](CCCNC(=N)N)NC1=O`, the 50% inhibitory concentration (IC50) on hNaV1.5 [1] is over 1 µM; at hNaV1.1, 0.235 µM; on hNaV1.6 it was 0.106 µM. In addition, the “Inhibitory Potency at hNaV1.7” value on hNaV1.7 is “Yes”.
